Pooled drug test results. Numbers come from NIAID ChemDB, via PubChem.

Shared fields: growth or infection tests; organism: Mycobacterium tuberculosis

MIC bound: limit read from a one-dose screen. MIC50, MIC90 and the like: level of inhibition, or share of isolates inhibited. a–b is a range or a potency band. ECn: concentration that inhibits the pathogen or its effect by n%. Conditions beyond the fields shown may differ between rows. An empty or dashed field is not shown. Percent inhibition refers to the dose given; in toxicity tests it is the harm to the cells.

compound	dose	method	strain	changes	read-out	result
CCCN(CCC)CNC(=O)c1cnccn1	-	-	PZA-resistant	-	MIC	100 µg/mL
CC(=O)O[C@H]1C[C@H]2[C@]3(C)CCC4C(C)(C)CCC[C@]4(C)[C@H]3C[C@@H](O)[C@]2(C)C2=C1COC2=O	-	BACTEC	H37Rv (ATCC 27294)	-	EC50	<12.5 µg/mL
Cc1cc2c(cc1C)[n+](=O)c(C(=O)C/C(=N\NC(=O)CC#N)C(=O)Nc1ccccc1C(F)(F)F)c(C)n2[O-]	-	BACTEC	H37Rv	-	MIC bound	≤12.5 µg/mL
N/C(COc1ccc([N+](=O)[O-])cc1)=N/NC(=O)c1ccncc1	-	-	ATCC 35838 (rifampin-resistant)	-	MIC	12.5 µg/mL
CO[C@@H]1C[C@H]2C=C[C@H]3[C@H]4O[C@]2(/C(C)=C/[C@@H](C)[C@H](C(C)O)OC1=O)[C@@H]3[C@H](O)[C@@H](C)[C@H]4OC(=O)c1ccc[nH]1	-	BACTEC	H37Rv	-	MIC bound	>12.5 µg/mL
COc1c(O)cc2oc3cc(O)c(CCC(C)C)c(O)c3c(=O)c2c1CCC(C)C	-	resazurin	M6	MDR	MIC	1.56 µg/mL
Cc1ccc(NC(=O)c2cnc(C(C)(C)C)cn2)cc1I	-	-	H37Rv	-	MIC	8 µg/mL
COc1ccc2nc3cc(Cl)ccc3c(Nc3ccc(S(=O)(=O)N=C(N)N)cc3)c2c1	-	-	H37Rv	-	EC50	<6.25 µg/mL
N#Cc1ccc(Nc2nc(Oc3ccnc4ccccc34)nc(N3CCN(c4ccccc4F)CC3)n2)cc1C(F)(F)F	-	agar	H37Rv	-	MIC	12.5 µg/mL
CC(=O)c1c(OC(=O)c2ccccc2)cc2oc3cc(OC(=O)c4ccccc4)c(CC=C(C)C)c(O)c3c(=O)c2c1CC=C(C)C	-	resazurin	H37Ra	-	MIC	>200 µg/mL
COc1ccc2nc3ccccc3c(Nc3ccc(/C(N)=N/NC(N)=O)cc3)c2c1	-	-	H37Rv	-	EC50	>6.25 µg/mL
NC(=O)c1cnc(Cl)cn1	-	-	ATCC35801	-	MIC	16 µg/mL
Cc1ccccc1OC/C(N)=N\NC(=O)c1ccncc1	-	-	16 isolates	-	MIC90	50 µg/mL
CC(C)(C)c1cc(C(C)(C)C)c(=O)oc(=O)c1	-	BACTEC	H37Rv	-	MIC bound	>12.5 µg/mL
CCOc1cc2oc3cc(O)c(CCC(C)C)c(O)c3c(=O)c2c(CCC(C)C)c1OC	-	resazurin	M-4	-	MIC	1.56 µg/mL
NC(=O)c1cnccn1	-	-	PZA-resistant	-	MIC	>300 µg/mL
CCCCCCCCC/C=C/C=C/C(=O)NCC(=O)NC1C(O)C(O)C(Nc2ncnc3nc[nH]c23)OC1C(O)CO	-	resazurin	H37Rv	-	MIC bound	>6.25 µg/mL
CCCCCOc1cc2oc3cc(O)c(CCC(C)C)c(O)c3c(=O)c2c(CCC(C)C)c1C(C)=O	-	resazurin	H37Ra	-	MIC	>200 µg/mL
CO[C@H]1/C=C/O[C@@]2(C)Oc3c(C)c(O)c4c(O)c(c5c(c4c3C2=O)NC2(CCN(CC(C)C)CC2)N=5)=NC(=O)/C(C)=C\C=C\[C@H](C)[C@H](O)[C@@H](C)[C@@H](O)[C@@H](C)[C@H](OC(C)=O)[C@@H]1C	-	-	TBH1-7 (rifampin-susceptible)	-	MIC	<0.5 µg/mL
O=C1C2=C(OCO2)C(=O)c2[nH]ncc21	-	BACTEC	H37Rv	-	MIC bound	>12.5 µg/mL
COC(=O)c1ccc(OC(=O)/C=C/c2ccc(O)c(OC)c2)c(O)c1	6.25 µg/mL	resazurin	ATCC 27294	-	inhibition	28%
CC1(C)S[C@@H]2[C@H](NC(=O)[C@H](N)c3ccc(O)cc3)C(=O)N2[C@H]1C(=O)O	-	-	H37Rv	-	MIC	16–32 µg/mL
COC(=O)c1ccc(OC(=O)/C=C/c2ccc(OC(C)=O)c(OC)c2)c(O)c1	6.25 µg/mL	resazurin	ATCC 27294	-	inhibition	30%
CC1(C)S[C@@H]2[C@H](NC(=O)[C@H](N)c3ccccc3)C(=O)N2[C@H]1C(=O)O	-	-	H37Rv	-	MIC	16–32 µg/mL
O=C(NCN1CCNCC1)c1cnccn1	-	-	ATCC 35822	-	MIC	33 µg/mL
Cn1nc2ccc3nccc(NCCNCCCl)c3c2n1	-	resazurin	H37Rv	-	MIC bound	>6.25 µg/mL
CC(C)OC(=O)C1(C(=O)OC(C)C)CC(C=O)Cc2c1[nH]c1ccccc21	-	-	H37Ra	-	MIC	64 µg/mL
C/C=C(/C)C(=O)OC1CC(C)(C)CC2C3=CCC4C5(C)CC[C@H](OC(C)=O)C(C)(C)C5CC[C@@]4(C)[C@]3(C)CC[C@@]12C(=O)O	-	-	H37Rv (ethambutol-resistant)	-	MIC	50 µg/mL
CC(C)=CCC/C(C)=C/CNCCNCCC12CC3CC(C1)CC(CCNCCNC/C=C(\C)CCC=C(C)C)(C3)C2	-	BACTEC	H37Rv	-	MIC	1 µM
O=C(Nc1ccc(C2=NC3CCCCC3N2)cc1)c1ccc(C(=O)Nc2ccc(C3=NC4CCCCC4N3)cc2)cc1	6.25 µg/mL	BACTEC	H37Rv	-	inhibition	40%
COc1ccc2nc3cc(Cl)ccc3c(Nc3ccc(S(N)(=O)=O)cc3)c2c1	-	-	H37Rv	-	EC50	<6.25 µg/mL
CN[C@@H]1[C@H](O[C@H]2[C@H](O[C@H]3[C@H](O)[C@@H](O)[C@H](N=C(N)N)[C@@H](O)[C@@H]3N=C(N)N)O[C@@H](C)[C@]2(O)C=O)O[C@@H](CO)[C@H](O)[C@H]1O	-	resazurin	ATCC 25177	-	MIC	48 µg/mL
CC(C)OC(=O)C1(C(=O)OC(C)C)C[C@@H]2CNC[C@H]2c2c1[nH]c1ccccc21	-	-	H37Ra	-	MIC	64 µg/mL
COc1ccc(-c2coc3cc(OC)c(OC)c(OC)c3c2=O)cc1	-	BACTEC	H37Rv	-	MIC bound	>12.5 µg/mL
CCCCOc1cc2oc3cc(O)c(CCC(C)C)c(O)c3c(=O)c2c(CCC(C)C)c1C(C)=O	-	resazurin	H37Ra	-	MIC	1.56 µg/mL
O=C(O)[C@H]1/C(=C/CO)O[C@@H]2CC(=O)N21	-	-	H37Rv	-	MIC	64 µg/mL
CCN(CCO)C(=O)COc1cc2c(O)c3c(O)c(C)c4c(c13)C(=O)[C@@](C)(O/C=C/[C@H](OC)[C@@H](C)[C@@H](OC(C)=O)[C@H](C)[C@H](O)[C@H](C)[C@@H](O)[C@@H](C)/C=C/C=C(/C)C(=O)N2)O4	-	-	H37Rv	-	MIC	0.09 µg/mL
CC(=O)Oc1cc2oc3cc(OC(C)=O)c(C(C)=O)c(CC=C(C)C)c3c(=O)c2c(O)c1CC=C(C)C	-	resazurin	H37Ra	-	MIC	12.5 µg/mL
CC1=CC[C@]2(C)CC[C@]3(C)C(=O)C=C(C(C)C)[C@@H]3[C@H]2CC1	-	resazurin	H37Rv	-	EC50	>6.25 µg/mL
COc1ccc(C2COc3cc(O)c(O)cc3C2)cc1	-	BACTEC	H37Rv	-	MIC bound	>12.5 µg/mL
CCCN(CCC)CNC(=O)c1cnc(C)cn1	-	-	PZA-resistant	-	MIC	100 µg/mL
Cc1cn([C@@H]2C[C@@H](N=[N+]=[N-])[C@H](COP(=O)(OCCC#N)O[C@H]3CC[C@@]4(C)C(=CC[C@H]5[C@@H]6CC[C@H](C(C)CCCC(C)C)[C@@]6(C)CC[C@@H]54)C3)O2)c(=O)[nH]c1=O	-	BACTEC	H37Rv	-	MIC bound	>12.5 µg/mL
Cc1ccc(NC(=O)c2cncc(Cl)n2)cc1I	-	-	H37Rv	-	MIC	8 µg/mL
CO[C@H]1/C=C/O[C@@]2(C)Oc3c(C)c(O)c4c(O)c(c(/C=N/N5CCN(C)CC5)c(O)c4c3C2=O)NC(=O)/C(C)=C\C=C\[C@H](C)[C@H](O)[C@@H](C)[C@@H](O)[C@@H](C)[C@H](OC(C)=O)[C@@H]1C	-	resazurin	M-3	-	MIC	>2 µg/mL
COc1ccc2nc3cc(Cl)ccc3c(Nc3ccc(S(=O)(=O)Nc4cc(C)on4)cc3)c2c1	-	-	H37Rv	-	EC50	<6.25 µg/mL
CCCCCCCCS(=O)(=O)CC(=O)NCC(=O)O	-	-	H37Rv	-	MIC	>25 µg/mL
N#Cc1ccc(Nc2nc(Oc3ccnc4ccccc34)nc(N3CCN(C(c4ccccc4)c4ccc(Cl)cc4)CC3)n2)cc1C(F)(F)F	-	agar	H37Rv	-	MIC	50 µg/mL
COC(=O)C(=O)C(C(=O)C1=NS(=O)(O)=c2cc(S(N)(=O)=O)c(Cl)cc2=N1)c1nc2ccc(C(=O)c3ccccc3)cc2[nH]c1=O	12.5 µg/mL	BACTEC	H37Rv	-	inhibition	80%
CC(=O)c1c(OCc2ccccc2)cc2oc3cc(O)c(CCC(C)C)c(O)c3c(=O)c2c1CCC(C)C	-	resazurin	H37Ra	-	MIC	6.25 µg/mL
CC(C)=CCC/C(C)=C/CNC(=O)CNC(=O)CC12CC3CC(C1)CC(CC(=O)NCC(=O)NC/C=C(\C)CCC=C(C)C)(C3)C2	-	BACTEC	H37Rv	-	MIC	>50 µM
Cc1nn(C(=O)c2ccncc2)c(C)c1N=Nc1cccc(Cl)c1	-	BACTEC	H37Rv	-	MIC bound	>12.5 µg/mL
Cc1cc(O)c2c(c1)C(=O)C(c1c(C)cc3c(c1O)C(=O)C=CC3=O)=CC2=O	-	-	Streptomycin isoniazid ethambutol-resistant	-	MIC	0.1 µg/mL
CO[C@H]1/C=C/O[C@@]2(C)Oc3c(C)c(O)c4c(O)c(cc(OCC(=O)NNc5ccccc5)c4c3C2=O)NC(=O)/C(C)=C\C=C\[C@H](C)[C@H](O)[C@@H](C)[C@@H](O)[C@@H](C)[C@H](OC(C)=O)[C@@H]1C	-	-	H37Rv	-	MIC	0.037 µg/mL
COc1ccc2nc3ccccc3c(Nc3ccc(S(=O)(=O)N=C(N)N)cc3)c2c1	-	-	H37Rv	-	EC50	>6.25 µg/mL
Cc1ccc(-c2cc(CN3CCSCC3)c(C)n2-c2ccc(F)cc2)cc1	-	-	-	-	MIC	3 µg/mL
CC#CC#C/C=C1\C=CC2(OC=CC2OC(C)=O)O1	-	BACTEC	H37Rv	-	MIC bound	≤12.5 µg/mL
CC1=CC[C@]2(C)CC(=O)[C@]3(C)C(=O)C=C(C(C)C)[C@@H]3[C@H]2CC1	6.25 µg/mL	resazurin	H37Rv	-	inhibition	9%
O=C(O)c1ccc(CO)cc1	6.25 µg/mL	resazurin	ATCC 27294	-	inhibition	22%
CCOC(=O)c1sc(N/N=C/c2ccc([N+](=O)[O-])cc2)nc1C	-	resazurin	H37Rv	-	MIC80	>200 µM
CCOC(=O)C(=O)C(C(=O)c1ccccn1)c1nc2n(c1O)C(=N)N=N2	6.25 µg/mL	resazurin	H37Rv	-	inhibition	-3%
Cc1cnc(C(=O)NCN2CCCC2)cn1	-	-	PZA-resistant	-	MIC	100 µg/mL
COC(=O)C1(C(=O)OC)CCC(O)n2c1c(/C=C/[N+](=O)[O-])c1ccccc12	-	-	H37Ra	-	MIC	256 µg/mL
CCCCN1C(=O)C(=O)N(CCc2ccc(OC)c(OC)c2)C1=O	-	BACTEC	H37Rv	-	MIC bound	>12.5 µg/mL
CCN(C(=O)COc1cc2c(O)c3c(O)c(C)c4c(c13)C(=O)[C@@](C)(O/C=C/[C@H](OC)[C@@H](C)[C@@H](OC(C)=O)[C@H](C)[C@H](O)[C@H](C)[C@@H](O)[C@@H](C)/C=C/C=C(/C)C(=O)N2)O4)N(C)C	-	-	H37Rv	-	MIC	0.18 µg/mL
C=CC12c3c4ccc(OC)c3OC1C(OC)=CCC2C(NC)C4	12.5 µg/mL	BACTEC	H37Rv	-	inhibition	2%
CC1(C)O[C@H]2OC(COCC(O)CNCCCCCCCCNC(O)COCC3O[C@@H]4OC(C)(C)O[C@@H]4[C@H]4OC(C)(C)O[C@@H]34)[C@@H]3OC(C)(C)O[C@@H]3[C@H]2O1	-	-	H37Rv	-	MIC	>50 µg/mL
Cc1ccc2cccc(CC(=O)NN)c2c1	-	BACTEC	H37Rv	-	MIC bound	>12.5 µg/mL
Cc1cccc(NC(=O)c2cnccn2)c1Br	-	-	H37Rv	-	MIC	2 µg/mL
Cc1cc(S(=O)(=O)Nc2nnc3c4ccccc4cnn23)c(S)cc1Cl	12.5 µg/mL	BACTEC	H37Rv	-	inhibition	0%
Cc1cccc(NC(=O)c2cnc(C(C)(C)C)cn2)c1Br	-	-	H37Rv	-	MIC	32 µg/mL
COc1ccc(S(=O)(=O)NC(=S)S)cc1	128 µg/mL	BACTEC	H37Rv	-	inhibition	100%
COc1ccc2nc3cc(Cl)ccc3c(Nc3ccc(S(=O)(=O)Nc4ncccn4)cc3)c2c1	-	-	H37Rv	-	EC50	<6.25 µg/mL
Cc1c(-c2ccc(-c3ccccc3F)cc2)nc2ccc(F)cc2c1C(=O)O	12.5 µg/mL	BACTEC	H37Rv	-	inhibition	16%
CN1CCN(CNC(=O)c2cnccn2)CC1	-	-	PZA-resistant	-	MIC	>100 µg/mL

For reference, 7 entries again:

compound | dose | method | strain | changes | read-out | result
CCCN(CCC)CNC(=O)c1cnccn1 | - | - | PZA-resistant | - | MIC | 100 µg/mL
COc1ccc(C2COc3cc(O)c(O)cc3C2)cc1 | - | BACTEC | H37Rv | - | MIC bound | >12.5 µg/mL
COc1ccc2nc3cc(Cl)ccc3c(Nc3ccc(S(N)(=O)=O)cc3)c2c1 | - | - | H37Rv | - | EC50 | <6.25 µg/mL
CCCCOc1cc2oc3cc(O)c(CCC(C)C)c(O)c3c(=O)c2c(CCC(C)C)c1C(C)=O | - | resazurin | H37Ra | - | MIC | 1.56 µg/mL
Cc1cc2c(cc1C)[n+](=O)c(C(=O)C/C(=N\NC(=O)CC#N)C(=O)Nc1ccccc1C(F)(F)F)c(C)n2[O-] | - | BACTEC | H37Rv | - | MIC bound | ≤12.5 µg/mL
CC(C)OC(=O)C1(C(=O)OC(C)C)C[C@@H]2CNC[C@H]2c2c1[nH]c1ccccc21 | - | - | H37Ra | - | MIC | 64 µg/mL
Cc1cn([C@@H]2C[C@@H](N=[N+]=[N-])[C@H](COP(=O)(OCCC#N)O[C@H]3CC[C@@]4(C)C(=CC[C@H]5[C@@H]6CC[C@H](C(C)CCCC(C)C)[C@@]6(C)CC[C@@H]54)C3)O2)c(=O)[nH]c1=O | - | BACTEC | H37Rv | - | MIC bound | >12.5 µg/mL